Data as given in patent publication US7053234B2 (Amgen Inc., priority 2000, dated 2006).

Sequences of proteins named here, by UniProt entry; tags and fusion partners are left off.
UniProt P47768, whole entry: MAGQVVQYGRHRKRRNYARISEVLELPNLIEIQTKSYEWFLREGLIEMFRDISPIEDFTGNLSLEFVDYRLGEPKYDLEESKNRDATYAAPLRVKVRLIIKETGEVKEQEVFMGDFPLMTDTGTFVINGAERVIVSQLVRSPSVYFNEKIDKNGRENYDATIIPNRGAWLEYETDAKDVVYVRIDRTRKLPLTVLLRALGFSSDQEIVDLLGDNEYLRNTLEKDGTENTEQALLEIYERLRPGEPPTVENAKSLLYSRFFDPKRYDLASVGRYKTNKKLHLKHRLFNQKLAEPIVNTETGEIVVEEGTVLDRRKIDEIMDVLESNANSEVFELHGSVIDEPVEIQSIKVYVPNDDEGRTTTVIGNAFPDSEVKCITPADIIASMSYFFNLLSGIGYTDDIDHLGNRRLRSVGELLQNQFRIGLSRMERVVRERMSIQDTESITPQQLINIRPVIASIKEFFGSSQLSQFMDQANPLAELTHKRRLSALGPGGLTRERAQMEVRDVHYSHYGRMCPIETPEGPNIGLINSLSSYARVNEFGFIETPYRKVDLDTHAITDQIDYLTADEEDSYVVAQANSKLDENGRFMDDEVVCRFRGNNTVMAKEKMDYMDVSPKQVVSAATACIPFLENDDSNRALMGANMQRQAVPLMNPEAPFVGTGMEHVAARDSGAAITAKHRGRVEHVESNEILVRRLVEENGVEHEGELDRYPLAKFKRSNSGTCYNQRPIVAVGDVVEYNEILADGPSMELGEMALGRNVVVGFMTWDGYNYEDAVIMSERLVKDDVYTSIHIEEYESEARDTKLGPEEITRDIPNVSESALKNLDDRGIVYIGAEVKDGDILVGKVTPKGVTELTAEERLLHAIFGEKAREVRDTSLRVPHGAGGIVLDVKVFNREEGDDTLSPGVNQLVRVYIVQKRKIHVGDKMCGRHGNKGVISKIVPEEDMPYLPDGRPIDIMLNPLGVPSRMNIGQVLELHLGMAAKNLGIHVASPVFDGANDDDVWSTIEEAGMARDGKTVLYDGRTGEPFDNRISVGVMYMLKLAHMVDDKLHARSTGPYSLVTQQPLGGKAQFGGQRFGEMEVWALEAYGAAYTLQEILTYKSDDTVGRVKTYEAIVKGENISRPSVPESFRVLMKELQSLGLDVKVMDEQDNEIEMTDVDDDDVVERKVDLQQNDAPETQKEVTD
UniProt Q2G0N5, whole entry: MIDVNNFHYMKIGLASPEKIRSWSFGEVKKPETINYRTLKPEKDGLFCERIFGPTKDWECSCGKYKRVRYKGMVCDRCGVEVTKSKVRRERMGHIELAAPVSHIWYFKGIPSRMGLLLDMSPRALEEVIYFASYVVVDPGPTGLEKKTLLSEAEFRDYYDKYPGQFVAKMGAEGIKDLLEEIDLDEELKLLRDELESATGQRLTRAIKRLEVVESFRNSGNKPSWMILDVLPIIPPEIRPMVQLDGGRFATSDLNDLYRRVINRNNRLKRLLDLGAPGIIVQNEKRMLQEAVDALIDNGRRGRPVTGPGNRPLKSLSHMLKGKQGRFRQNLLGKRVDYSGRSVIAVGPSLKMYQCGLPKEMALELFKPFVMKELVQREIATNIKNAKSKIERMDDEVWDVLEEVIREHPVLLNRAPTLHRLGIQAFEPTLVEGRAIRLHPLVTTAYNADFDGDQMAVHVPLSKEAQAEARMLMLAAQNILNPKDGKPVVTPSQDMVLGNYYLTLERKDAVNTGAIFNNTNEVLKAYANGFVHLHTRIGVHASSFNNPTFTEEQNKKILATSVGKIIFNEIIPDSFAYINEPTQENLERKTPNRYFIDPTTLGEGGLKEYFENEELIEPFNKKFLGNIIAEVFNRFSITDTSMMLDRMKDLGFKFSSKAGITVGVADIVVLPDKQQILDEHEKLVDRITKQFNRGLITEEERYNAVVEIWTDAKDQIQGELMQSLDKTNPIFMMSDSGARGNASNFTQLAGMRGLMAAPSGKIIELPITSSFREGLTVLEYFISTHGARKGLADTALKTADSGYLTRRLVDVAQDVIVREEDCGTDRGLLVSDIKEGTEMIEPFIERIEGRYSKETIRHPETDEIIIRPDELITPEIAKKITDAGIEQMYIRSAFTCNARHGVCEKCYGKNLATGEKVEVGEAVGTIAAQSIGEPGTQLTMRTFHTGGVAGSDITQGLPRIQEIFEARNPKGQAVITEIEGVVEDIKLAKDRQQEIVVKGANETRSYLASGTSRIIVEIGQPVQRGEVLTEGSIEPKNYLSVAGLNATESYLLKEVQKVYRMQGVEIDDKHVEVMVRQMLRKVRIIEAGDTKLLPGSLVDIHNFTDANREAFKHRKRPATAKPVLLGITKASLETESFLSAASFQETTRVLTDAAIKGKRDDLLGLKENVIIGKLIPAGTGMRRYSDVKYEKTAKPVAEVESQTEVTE
UniProt Q2FW32, whole entry partner: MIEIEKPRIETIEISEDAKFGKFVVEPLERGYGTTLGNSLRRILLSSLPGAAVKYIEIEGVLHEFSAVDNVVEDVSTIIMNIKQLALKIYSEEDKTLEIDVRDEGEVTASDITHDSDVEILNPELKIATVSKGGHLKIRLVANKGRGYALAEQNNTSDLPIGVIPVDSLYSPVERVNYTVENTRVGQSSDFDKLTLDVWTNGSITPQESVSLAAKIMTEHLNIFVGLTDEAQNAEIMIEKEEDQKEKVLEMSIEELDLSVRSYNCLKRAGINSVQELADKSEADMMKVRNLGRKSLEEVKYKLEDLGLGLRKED

Legend:
[1] = target: RNA-pol S. aureus (Staphylococcus aureus, UniProt P47768+Q2G0N5); assay: RNA polymerase inhibition assay (S. aureus enzyme); settings: read-out: RNA-pol IC50 (μM) S. aureus; Table 2
[2] = test system: S. aureus; assay: MIC determination, S. aureus; format: cell-based; settings: Table 2
[3] = test system: E. coli (tolC); assay: MIC determination, E. coli (tolC); format: cell-based; settings: Table 2
Procedure: For MIC determinations for selected bacteria, log phase growing bacteria are re-suspended at 1×10^5 bacteria per mL in LB medium. The compound is added and two-fold dilutions are made. The final volume in the 96-well plate is about 100 uL. The plate is incubated at 37° C. in the dark with shaking. After 16 hours of incubation, growth is monitored by reading A600 or by visual inspection. MIC is defined as the minimum concentration of drug resulting in inhibition of visible growth of bacterial under the conditions described (above) in National Committee for Clinical Laboratory Standards 1993. Methods for dilution antimicrobial susceptibility tests for bacteria that grow aerobically. Approved standard M7-A3; National Committee for Clinical Laboratory Standards: Villanova, Pa.

With `O=C(Nc1ccc(Cl)c(Cl)c1)Nc1cc(C(=O)Nc2cccc(Cl)c2)cc(C(F)(F)F)c1N1CCCC1` the IC50 [1] was < 10 µM, the “MIC (μM) S. aureus” value [2] was “+++ (less than 40 μM)” and the “MIC (μM) E. coli (tolC)” value [3] was “+ (greater than 125 μM)”.
